Data as given in US20180162862A1 (President and Fellows of Harvard College, priority 2015, published 2018).
The structures given here were assigned with low confidence; some may be wrong.

By UniProt entry, the sequences of proteins in these tests, tags left out. Residues count along the entry.
UniProt Q99T05, 68-269 limits assumed: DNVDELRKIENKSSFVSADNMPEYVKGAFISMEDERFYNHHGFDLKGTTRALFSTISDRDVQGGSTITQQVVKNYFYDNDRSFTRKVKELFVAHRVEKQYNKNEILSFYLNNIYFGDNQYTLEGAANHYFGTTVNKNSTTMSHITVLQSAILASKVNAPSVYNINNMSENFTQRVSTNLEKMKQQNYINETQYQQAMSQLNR

target: S. aureus SgtB (Staphylococcus aureus, UniProt Q99T05); assay: Dose-dependent displacement of probe CMG121 from S. aureus SgtB by fluorescence polarization; type: binding; settings: read-out: IC50 from FP Assay; displacement of 75 nM CMG121 from S. aureus SgtB, 30 min at 4° C.
Protocol: I. Dose-Dependent Displacement of CMG121 from S. aureus SgtB by Fluorescence Polarization
A black 384 well plate (Corning NBS Low Volume No. 3820) was filled (10 μL per well) with an equilibrated solution containing 10 mM TRIS (pH=8.0), 100 mM NaCl, 75 nM CMG121, and 1.0-1.5 μM S. aureus SgtB (depending on protein batch). Due to presence of 8 mM CHAPS detergent in the buffer of the S. aureus SgtB stock, the final assay solution contains 100-160 μM CHAPS. Using an HP D300 Digital Dispenser, for each compound a 1/1 dilution series (12 wells) of the primary hit compound in DMSO (normalized to 1 μL with DMSO) was prepared and added to the aforementioned assay solution. The plate was incubated at 4° C. for 30 min and read with a Perkin Elmer EnVision microplate reader (FP-read out, excitation: 480 nm; emission: 535 nm). Data was plotted for fluorescence polarization (FP) (y-axis) vs. log(concentration of test compound in μM; x-axis), and IC50 values were determined by non-linear regression analysis using GraphPad Prism 5.0 (GraphPad Software, Inc.; La Jolla, Calif., USA).
FIGS. 10A-E show values of reduction of fluorescence polarization for exemplified compounds. […] In the primary assay, FP was read after 30 min at 4° C., compound concentration was ca. 100 μM, and 90% reduction in FP was threshold for scoring hits (Gampe et al., J. Am. Chem. Soc. 2013, 135 (10), 3776-3779; U.S. Provisional Patent Application, U.S. Ser. No. 61/621,229, filed on Apr. 6, 2012; International Application No. PCT/US2013/030800 filed on Mar. 13, 2013).
The values were determined in two independent experiments. IC50=10 μM; Hill slope: −0.92.

SMILES | IC50 [µM]
Cc1cc(OCCCSc2nc(-c3ccc(C(C)(C)C)cc3)nc3cc(=O)[nH]n23)ccc1Cl [Example 2, 2-(4-tert-butylphenyl)-4-{[3-(4-chloro-3-methylphenoxy)propyl]sulfanyl}-6H,7H-pyrazolo[1,5-a][1,3,5]triazin-7-one] | 14
Cc1cc(OCCCNc2nc(-c3ccc(C(C)(C)C)cc3)nc3cc(=O)[nH]n23)ccc1Cl [Example 14, 2-(4-tert-butylphenyl)-4-{[3-(4-chloro-3-methylphenoxy)propyl]amino}-6H,7H-pyrazolo[1,5-a][1,3,5]triazin-7-one] | 21
CCCCNc1nc(-c2ccc(C(C)(C)C)cc2)nc2cc(=O)[nH]n12 [Example 16, 4-(butylamino)-2-(4-tert-butylphenyl)-6H,7H-pyrazolo[1,5-a][1,3,5]triazin-7-one] | > 200
